pKd: −log10 of the molar value.

Assay [1] has as its target human importin α1 lacking the importin-β binding domain (hIMPα1ΔIBB). Briefly: FP assay. To be noted: parent: 225.68 nM.
In assay [2] the target is human importin α3 lacking the importin-β binding domain (hIMPα3ΔIBB). In words: FP assay. The note with it: parent: 192.86 nM.

As a reminder, the pKd is the Kd on a negative log10 scale, so that one unit is a factor of ten. In the case of “HaHV1 UL36h NLS peptide (residues 1491-1500), FITC/Ahx-labelled R1495A”, the pKd is 5.23 in assay [1] and 5.38 in assay [2].
